PubChem BioAssay AID624099 | ICCB-Longwood – 2012
Screen: 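Human genes that papillomavirus E2 requires to repress the HPV18 LCR promoter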 (primary screen). Cell system: human C33A cervical carcinoma cells (HPV-negative) stably expressing BPV1 E2 and an HPV18 LCR luciferase reporter. Knock-down reagent: siRNA pool against human genes, 40 nM. Duration: 72 h. Measured: 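HPV18 LCR reporter light per well, converted to plate-wise z-scores that exclude control wells, and averaged over triplicate plates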. Direction: mean z-score and z-score: higher = stronger reporter signal, weaker E2 silencing. Active means: 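Mean z ≥ 2 together with z ≥ 2 in two or more of the three replicates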.
Shown is one part, drawn at random, of about 21,000 reagents tested. 497 of all reagents (2.4%) count as active. 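Higher z means weaker E2 silencing; only reporter increases were scored, and knock-downs that hurt cell survival may mask genuine repressor factors.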 Entries without a mark were called inactive. Reagent sequences are not shown.

FSCN2 (fascin actin-bundling protein 2, retinal) | mean z-score: 0.05; z-score, replicate A: 0.25; z-score, replicate B: -0.13; z-score, replicate C: 0.04
ENDOV (endonuclease V) | mean z-score: 0.94; z-score, replicate A: 0.91; z-score, replicate B: 0.8; z-score, replicate C: 1.11
TMEM64 (transmembrane protein 64) | mean z-score: -0.6; z-score, replicate A: -0.36; z-score, replicate B: -0.71; z-score, replicate C: -0.72
MYBPC1 (myosin binding protein C1) | mean z-score: 0.4; z-score, replicate A: 0.31; z-score, replicate B: 0.61; z-score, replicate C: 0.28
SLC35A4 | mean z-score: -0.93; z-score, replicate A: -0.81; z-score, replicate B: -0.86; z-score, replicate C: -1.12
RPL5P29 (ribosomal protein L5 pseudogene 29) | mean z-score: -0.83; z-score, replicate A: -0.63; z-score, replicate B: -0.9; z-score, replicate C: -0.97
TAF1D | mean z-score: -0.62; z-score, replicate A: -0.26; z-score, replicate B: -0.71; z-score, replicate C: -0.89
NOAZFP (nucleolar atypical zinc finger) | mean z-score: 0.04; z-score, replicate A: -0.03; z-score, replicate B: -0.05; z-score, replicate C: 0.18
SYNJ1 (synaptojanin 1) | mean z-score: -0.52; z-score, replicate A: -0.65; z-score, replicate B: -0.51; z-score, replicate C: -0.4
MTRF1L (mitochondrial translation release factor 1 like) | mean z-score: 0.74; z-score, replicate A: 0.77; z-score, replicate B: 0.73; z-score, replicate C: 0.72
C20orf204 (chromosome 20 open reading frame 204) | mean z-score: -0.76; z-score, replicate A: -0.51; z-score, replicate B: -0.96; z-score, replicate C: -0.8
ATG7 (autophagy related 7) | mean z-score: 0.81; z-score, replicate A: 0.69; z-score, replicate B: 0.73; z-score, replicate C: 1.02
